In patent US20040177664A1, “Production of a high quality organic-based fertilizer” (priority 2003, published 2004):

Assay: Odor reduction of municipal sludge, headspace GC-MS and odor
Settings: second series, 5.00 g sludge no dilution, 0.5 ml or 0.5 g addition
Protocol: Effectiveness of the treatments was evaluated through the GC-MS analysis of the treated and untreated sludge. Sludge (5.0 g) was placed into a 44 ml vial. After heating to 60.0° C. for 5.0 minutes a probe of gas was taken from the vial (0.5 ml) and injected into the GC-MS.
Hewlett-Packard (HP) GC 5890 coupled with an HP 5971 mass-spectrometer. The system incorporates an electron beam as an ion source. Ions are filtered through a glass with silver-coated quadruples.
A DB5MS capillary chromatographic column is used and the MS is tuned with PFTBA in a Scan Mode (tune file: BFB.U).
For further characterization the peak area of the 94-ion was selected. The calibration was performed using dimethyldisulfide. A calibration curve is presented in the attached data.
In the first series, 6.00 g (±0.05) of the sludge with the addition of 10.0 ml of distilled water was used. For the treatment, we used potential oxidizers such as KNO3 and H2SO4 in different combinations.
In the second series we used 5.00 g (±0.01) of the sludge with no dilution. For the treatment we used additions of hydrogen peroxide (30%) −0.5 ml, sulfuric acid (98%), −0.5 ml, a combination of hydrogen peroxide and 0.5 ml and sulfuric acid 0. ml, ammonia (54%) −0.5ml, calcium hypochlorite −0.5 g.
The effectiveness of the additions is evaluated through decreasing the area of 94-ion signal with retention time around 1.94 minutes. […]

Row | Compound | Peak area for line 94 at retention time of 1.93 and 1.74 minutes
1 | N [NH3, ammonia] | 3,650 integration units (IU)
2 | OO [Trial H2O2, hydrogen peroxide] | 35,000 integration units (IU)
